# From EP4821928A1, “BICYCLIC HETEROCYCLIC COMPOUND AND FUNGICIDE FOR AGRICULTURAL AND HORTICULTURAL USE CONTAINING SAME AS ACTIVE INGREDIENT” (dated 2026)
# Columns and labels:
# [1] = system: Botrytis cinerea; experiment: Tomato gray mold pot test (Test Example B); details: for Tomato gray mold pot test (control value): 250 ppm sprayed, 2.5 ml/pot, tomato variety Oogata Fukuju, degree of disease development 2 to 3 days after inoculation
# [2] = system: Magnaporthe grisea; experiment: Rice blast disease pot test (Test Example A); details: for Rice blast disease pot test (control value): 250 ppm sprayed, 2.5 ml/pot, rice variety Sachikaze, degree of disease development 6 to 8 days after inoculation
# [3] = system: Fusarium blight fungus (Fusarium graminearum); experiment: Fusarium blight anti-germ test (Test Example D); details: for Fusarium blight anti-germ test (rate of inhibition): 50 ppm/well, Czapek-dox broth, 25°C for 3 days, absorbance 600 nm
# [4] = system: Gray mold fungus (Botrytis cinerea); experiment: Gray mold anti-germ test (Test Example C); details: for Gray mold anti-germ test (rate of inhibition): 50 ppm/well, Czapek-dox broth, 25°C for 3 days, absorbance 600 nm
# [5] = system: Speckled leaf blotch fungus (Septoria tritici); experiment: Speckled leaf blotch anti-germ test (Test Example F); details: for Speckled leaf blotch anti-germ test (rate of inhibition): 50 ppm/well, Czapek-dox broth, 25°C for 3 days, absorbance 600 nm
# [6] = system: Anthracnose fungus (Glomerella cingulata); experiment: Anthracnose anti-germ test (Test Example E); details: for Anthracnose anti-germ test (rate of inhibition): 50 ppm/well, Czapek-dox broth, 25°C for 3 days, absorbance 600 nm
SMILES,Tomato gray mold pot test (control value) [1],Rice blast disease pot test (control value) [2],Fusarium blight anti-germ test (rate of inhibition) [3],Gray mold anti-germ test (rate of inhibition) [4],Speckled leaf blotch anti-germ test (rate of inhibition) [5],Anthracnose anti-germ test (rate of inhibition) [6],"control value ([1]; Test Example B, tomato gray mold pot test)","control value ([2]; Test Example A, rice blast disease pot test)","rate of inhibition ([3]; Test Example D, Fusarium blight anti-germ test)","rate of inhibition ([4]; Test Example C, gray mold anti-germ test)","rate of inhibition ([5]; Test Example F, speckled leaf blotch anti-germ test)","rate of inhibition ([6]; Test Example E, anthracnose anti-germ test)"
Cc1cccc2c1OC(C)(C)N=C2n1cnc2c(C)c(Cl)ccc21,L (L represents a control value or rate of inhibition of 50% or less),H (H represents a control value or rate of inhibition of larger than 50%),H (H represents a control value or rate of inhibition of larger than 50%),H (H represents a control value or rate of inhibition of larger than 50%),H (H represents a control value or rate of inhibition of larger than 50%),H (H represents a control value or rate of inhibition of larger than 50%),–,–,–,–,–,–
Cc1ccc2c(c1)OC(C)(C)N=C2n1cnc2ccccc21,L (L represents a control value or rate of inhibition of 50% or less),L (L represents a control value or rate of inhibition of 50% or less),L (L represents a control value or rate of inhibition of 50% or less),L (L represents a control value or rate of inhibition of 50% or less),L (L represents a control value or rate of inhibition of 50% or less),L (L represents a control value or rate of inhibition of 50% or less),–,–,–,–,–,–
COc1ccc2c(c1)OC(C)(C)N=C2n1cnc2c(C)c(Cl)ccc21,H (H represents a control value or rate of inhibition of larger than 50%),L (L represents a control value or rate of inhibition of 50% or less),H (H represents a control value or rate of inhibition of larger than 50%),H (H represents a control value or rate of inhibition of larger than 50%),L (L represents a control value or rate of inhibition of 50% or less),H (H represents a control value or rate of inhibition of larger than 50%),–,–,–,–,–,–
Cc1c(Cl)ccc2c1ncn2C1=NC(C)(C)Sc2c(F)cccc21,H (H represents a control value or rate of inhibition of larger than 50%),H (H represents a control value or rate of inhibition of larger than 50%),H (H represents a control value or rate of inhibition of larger than 50%),H (H represents a control value or rate of inhibition of larger than 50%),L (L represents a control value or rate of inhibition of 50% or less),H (H represents a control value or rate of inhibition of larger than 50%),–,–,–,–,–,–
Cc1cnc2c(C3=NC(C)(C)Oc4ccccc43)cnn2c1,–,–,–,–,–,–,H (H represents a control value or rate of inhibition of larger than 50%),H (H represents a control value or rate of inhibition of larger than 50%),L (L represents a control value or rate of inhibition of 50% or less),L (L represents a control value or rate of inhibition of 50% or less),L (L represents a control value or rate of inhibition of 50% or less),H (H represents a control value or rate of inhibition of larger than 50%)
Cc1cccc2c1OC(C)(C)N=C2n1cnc2c(C)c(C)ccc21,H (H represents a control value or rate of inhibition of larger than 50%),H (H represents a control value or rate of inhibition of larger than 50%),H (H represents a control value or rate of inhibition of larger than 50%),H (H represents a control value or rate of inhibition of larger than 50%),H (H represents a control value or rate of inhibition of larger than 50%),H (H represents a control value or rate of inhibition of larger than 50%),–,–,–,–,–,–
